Results reported in patent US20250213569A1, “METHODS AND COMPOSITIONS FOR MEASURING AND INHIBITING EXONUCLEASE ACTIVITY” (priority 2020, published 2025).

Test system: FRET signal of digested Oligo D
Test: FRET fluorescence quenching following reaction completion
Conditions: not given

SMILES	quenching of FRET signal after reaction completion
CC(C)=CCOc1ccc(/C=C/C(=O)c2ccc(OCC=C(C)C)cc2OCC(=O)O)cc1 [Compound 68, Sofalcone, reference compound]	not quenched
CC(C)=CCc1c2c(c3occ(-c4ccc(O)c(O)c4)c(=O)c3c1O)C=CC(C)(C)O2 [Compound 69, Pomiferin]	not quenched
CC(C)=CCc1c(O)ccc(C(=O)/C=C/c2ccc(O)cc2)c1O [Compound 77, Isobavachalcone]	not quenched
O=C(NCc1ccc(F)cc1)C1C(=O)N(O)C(=O)c2cc(C(F)(F)F)ccc21 (stereo not drawn) [Compound 112, 7-trifluoromethyl-N-(4-fluorobenzyl)-2-hydroxy-1,3-dioxo-4H-isoquinoline-4-carboxamide]	not quenched

Same assay, conditions: 500 μM added after digestion of Oligo D by RNase A or NSP14/10

SMILES	quenching of FRET signal after reaction completion
O=C1Cc2ccccc2C(=O)N1O [Compound 13, 2-Hydroxyisoquinoline-1,3(2H,4H)-dione]	not quenched

Same assay, conditions: 250 M (so in the source) added after digestion of Oligo D by RNase A

SMILES	quenching of FRET signal after reaction completion
Oc1ccc(CC2NCCc3cc(O)c(O)cc32)cc1O (stereo not drawn) [Compound 54, Tetrahydropapaveroline]	not quenched
Cc1c(S(=O)(=O)[O-])oc2c1C(=O)C(=O)c1c-2ccc2c1CCCC2(C)C.[Na+] [Compound 60, Tanshinone IIA sulfonate]	not quenched
Cc1ccc2ccc(C(=O)O)c(O)c2n1 [Compound 78, 2-methyl-8-hydroxyquinoline-7-carboxylic acid]	not quenched
O=C(c1ccccc1)c1ccc2ccc(/C=C/c3ccc(O)c(O)c3)nc2c1O [Compound 96, 7-benzoyl-2-(3,4-dihydroxyvinyl)-8-hydroxyquinoline]	not quenched
